A mixed list of measured activities; the numbers were collected in NIAID ChemDB.

Common to all: tests on isolated targets; agent: HIV-1; protein: Reverse transcriptase; measure: inhibition

Two numbers with a dash give a range or band.

SMILES	tested at	mutations	strain	value
O=C(/C=C/c1ccc(O)c(O)c1)O[C@@H]1CC(O)(C(=O)O)C[C@@H](OC(=O)/C=C/c2ccc(O)c(O)c2)C1O	50 µg/mL		LAI	45%
O=C(O[C@@H]1Cc2c(O)cc(O)cc2O[C@@H]1c1ccc(O)c(O)c1)c1cc(O)c(O)c(O)c1	10 µg/mL			0%
O=c1cc(-c2ccccc2)oc2cc(O)c(O)c(O)c12	2 µg/mL			70%
O=c1oc2c(O)c(O)cc3c(=O)oc4c(O)c(O)cc1c4c23	10 µg/mL			72%
O=C(/C=C/c1ccc(O)c(O)c1)OC1[C@H](OC(=O)/C=C/c2ccc(O)c(O)c2)CC(O)(C(=O)O)C[C@H]1OC(=O)/C=C/c1ccc(O)c(O)c1	10 µg/mL		IIIB	95.6%
CC[C@H]1CN2CCc3cc(OC)c(OC)cc3[C@@H]2C[C@@H]1CC1=NCCc2cc(O)c(OC)cc21	400 µg/mL			10–20%
Oc1cc(O)c2c(c1)O[C@H](c1ccc(O)c(O)c1)[C@H](O)C2	1 µg/mL			0%
O=C(/C=C/c1ccc(O)c(O)c1)O[C@@H]1C[C@](OC(=O)/C=C/c2ccc(O)c(O)c2)(C(=O)O)C[C@@H](O)[C@H]1O	5 µg/mL		LAI	13%
O=C(O[C@@H]1Cc2c(O)cc(O)cc2O[C@@H]1c1cc(O)c(O)c(O)c1)c1cc(O)c(O)c(O)c1	10 µg/mL			10%
CC(=O)c1ccc(C)cc1NC(C(N)=O)c1c(Cl)cccc1Cl	0.16 µg/mL			10.4%
CCC1=C(C[C@H]2NCCc3cc(OC)c(OC)cc32)C[C@H]2c3cc(OC)c(OC)cc3CCN2C1	400 µg/mL			10–20%
COc1ccc2[nH]c(=O)oc2c1	80 µM			19.5%
CC1(C)[C@@H](O[C@H]2O[C@H](C(=O)O)[C@@H](O)[C@H](O)[C@H]2O[C@@H]2O[C@H](C(=O)O)[C@@H](O)[C@H](O)[C@H]2O)CC[C@]2(C)[C@H]3C(=O)C=C4[C@@H]5C[C@@](C)(C(=O)O)CC[C@]5(C)CC[C@@]4(C)[C@]3(C)CC[C@@H]12	500 µg/mL			98.3%
Oc1cc(O)c2c(c1)O[C@H](c1cc(O)c(O)c(O)c1)[C@H](O)C2	0.1 µg/mL		LAV	0%
CCc1c(Sc2ccccn2)n(COCc2ccccc2)c(=O)[nH]c1=O	50 µM	RT-Y181C		30%
Oc1cc(O)c2c(c1)O[C@H](c1cc(O)c(O)c(O)c1)[C@H](O)C2	1 µg/mL			0%
O=C(OC1[C@H](OC(=O)c2cc(O)c(O)c(O)c2)CC(O)(C(=O)O)C[C@H]1OC(=O)c1cc(O)c(O)c(O)c1)c1cc(O)c(O)c(O)c1	10 µg/mL		IIIB	96.7%
C1CCNCCNCCCNCCNC1	0.35 µM			64%
O=C(O)[C@H]1O[C@@H](Oc2cc3oc(-c4ccccc4)cc(=O)c3c(O)c2O)[C@H](O)[C@@H](O)[C@@H]1O	500 µg/mL		LAV	99.14%

The last 3 rows once more:

SMILES	tested at	mutations	strain	value
O=C(OC1[C@H](OC(=O)c2cc(O)c(O)c(O)c2)CC(O)(C(=O)O)C[C@H]1OC(=O)c1cc(O)c(O)c(O)c1)c1cc(O)c(O)c(O)c1	10 µg/mL		IIIB	96.7%
C1CCNCCNCCCNCCNC1	0.35 µM			64%
O=C(O)[C@H]1O[C@@H](Oc2cc3oc(-c4ccccc4)cc(=O)c3c(O)c2O)[C@H](O)[C@@H](O)[C@@H]1O	500 µg/mL		LAV	99.14%

Rows are shuffled and stem from different studies. An empty or dashed field is not shown. Inhibition is in % at the dose shown (toxicity tests: loss of growth or viability).